From patent publication US7998969B2, “Non-nucleoside reverse transcriptase inhibitors” (Roche Palo Alto LLC, priority 2006, dated 2011) come the findings set out here.

Each structure is given as a SMILES string.

Test [1] has as its target HIV-1 reverse transcriptase (HIV-RT enzyme) (Human immunodeficiency virus type 1 group M subtype B, UniProt P03366). As to the kind of experiment: HIV-1 Reverse Transcriptase Assay Inhibitor IC50 Determination (RNA-dependent DNA polymerase activity, SPA). As to conditions: read-out: HIVRT inhibition IC50, 30 min at 30°. On the procedure:
HIV-1 Reverse Transcriptase Assay Inhibitor IC50 Determination
RNA-dependent DNA polymerase activity was measured using a biotinylated primer oligonucleotide and tritiated dNTP substrate. Newly synthesized DNA was quantified by capturing the biotinylated primer molecules on streptavidin coated Scintillation Proximity Assay (SPA) beads (Amersham). The sequences of the polymerase assay substrate were: 18 nt DNA primer, 5′-Biotin/[…] -3′; 47 nt RNA template, 5′-[…] -3′. The biotinylated DNA primer was obtained from the Integrated DNA Technologies Inc. and the RNA template was synthesized by Dharmacon. The DNA polymerase assay (final volume 50 μl) contained 32 nM biotinylated DNA primer, 64 nM RNA substrate, dGTP, dCTP, dTTP (each at 5 μM), 103 nM [^3H]-dATP (specific activity=[…]), in 45 mM Tris-HCl, pH 8.0, 45 mM NaCl, 2.7 mM Mg(CH3COO)2, 0.045% Triton X-100 w/v, 0.9 mM EDTA. The reactions contained 5 μl of serial compound dilutions in 100% DMSO for IC50 determination and the final concentrations of DMSO were 10%. Reactions were initiated by the addition of […] of the HIV-RT enzyme (final concentrations of 1-3 nM). Protein concentrations were adjusted to provide linear product formation for at least 30 min of incubation. […] The beads were left to settle overnight and the SPA signals were counted in a 96-well top counter-NXT (Packard). […]

Test [2] concerns wild-type laboratory strain HIV-1HXB2. Description: Recombinant HIV-1 Antiviral Assay (MTT cell viability assay with MT-4 cells). The class given is cell-based. To be noted: read-out: Antiviral Activity IC50; MT-4 cells infected with HIV-1HXB2, MTT readout after 5 days. On the procedure: Recombinant HIV-1 Antiviral Assay
The sensitivity of a wild-type laboratory strain HIV-1HXB2 to described compounds was determined by the 3-[4,5-dimethylthiazol-2yl]-2,5-diphenyltetrazolium bromide (MTT) cell viability assay with MT-4 cells (R. Pauwels et al., “Rapid and automated tetrazolium-based colorimetric assay for the detection of anti-HIV compounds,” J. Virological Methods 1988 20:309-321). Briefly, MT-4 cells were incubated with virus (MOI 0.0001) for 1 h at 37° C. and then resuspended at 7.5×10^5/mL in RPMI 1640 (with out phenol) (Gibco) with 10% FCS and antibiotics and plated out onto a 96 well plate (Corning Costar, USA). After 5 days incubation 20 μL of MTT (Sigma-Aldrich) (5 mg/mL in PBS) was added and the plates were incubated for 2 h before the addition of 170 μL of acidified IPA. The absorbance was measured at 540 nm and the TCID50 determined by Spearman-Karber method.

`Cc1cc(C#N)cc(Cl)c1Oc1ccnc(NC2CCN(Cc3ccc(S(N)(=O)=O)cc3Cl)CC2)n1`: the figures for the IC50 in test [1] and in test [2] were 26.8 nM and 3.9 nM, respectively.

In general, IC50 refers to the midpoint of a concentration-inhibition curve.
